In patent US10098904B2, “Zidovudine combination therapies for treating microbial infections” (HELPERBY THERAPEUTICS LIMITED, priority 2014, dated 2018):
Like-named read-outs stand apart in the source and are kept apart here.

Assays:
[1] = test system: NDM-1 Klebsiella pneumonia BAA2472
[2] = test system: NDM-1 Klebsiella pneumonia BAA2473
[3] = drug alone, log phase, 24 hours incubation
[4] = in combination with 2 μg/ml of rifampicin

Substance: Colistin
- MIC [1, 3]: 1 µg/mL
- MIC of colistin in combination with rifampicin [1, 4]: 0.125 µg/mL
- reduction of colistin MIC ([2]; HT0120663 at 0.25 μg/ml added, compared with rifampicin and colistin combination only): 4 fold
- reduction of colistin MIC ([2]; HT0120663 at 0.5 μg/ml added, compared with rifampicin and colistin combination): 8 fold
- MIC (NDM-1 E. coli BAA2471; [3]): 1 µg/mL
- MIC of colistin in combination with rifampicin (NDM-1 E. coli BAA2471; [4]): 0.125 µg/mL
